Measured values from several laboratories, pooled; numbers as filed in NIAID ChemDB.

Shared fields: growth or infection tests; species: Hepatitis B virus; measure: EC50

Neighbouring rows are from separate reports. Blank or dashed fields: not listed here. Two numbers with a dash give a range or band. ECn is the concentration giving n% inhibition of infection, replication or growth.

| structure | strain | changes | cells | read by | value |
|---|---|---|---|---|---|
| Cn1nc2cc(NS(=O)(=O)c3cnn(CC4CNC4)c3)ccc2c1C(=O)Nc1ccc(F)c(Cl)c1 |  |  | HepAD38 | PCR | <100 µM |
| Cc1c(C(=O)C(=O)NC2(C#CCO)COC2)c(C)n(C)c1C(=O)Nc1ccc(F)c(C#N)c1 |  |  | HepG2.2.15 | PCR | 0.01–0.099 µM |
| CCOC(=O)C1=C(CN2CC(F)(F)[C@@H]3[C@H]2CON3CC[C@](C)(OC)C(=O)O)NC(c2nccs2)=N[C@H]1c1ccc(F)c(F)c1Cl |  |  | HepG2.2.15 | PCR | 0.0345 µM |
| COc1ccc(-n2c(C(=O)N[C@@H](c3ccccc3)C(F)(F)F)c3n(c2=O)CCN(C(=O)c2ccc(Br)c(Cl)c2)C3)cc1 |  |  | HepG2.117 | PCR | 0.1–0.5 µM |
| CNS(=O)(=O)N1CCCC(C)(NS(=O)(=O)c2cn(C)c(C(=O)Nc3ccc(F)c(F)c3)c2F)C1 |  |  | HepAD38 cells | PCR | <0.1 µM |
| C#CCNC(=O)C(=O)c1cc(C(=O)Nc2ccc(F)c(C#N)c2)n(C)c1C |  |  | HepG2.2.15 | PCR | 0.01–0.099 µM |
| Cn1nc2cc(NS(=O)(=O)c3ccn(CC4CNC4)n3)ccc2c1C(=O)Nc1ccc(F)c(Cl)c1 |  |  | HepAD38 | PCR | >1000 µM |
| O=C(NCc1ccccc1-n1cc(F)cn1)c1c2n(c(=O)n1-c1ccc(OCC(F)(F)F)cc1)CCN(C(=O)c1ccc(Br)c(Cl)c1)C2 |  |  | HepG2.117 | PCR | <0.1 µM |
| CCOC(=O)C1=C(CN2CC(F)(F)[C@@H]3[C@H]2CON3C[C@H](F)CCC(C)(C)C(=O)O)NC(c2nccs2)=N[C@H]1c1cccc(F)c1C |  |  | HepG2.2.15 | PCR | 0.008 µM |
| Cn1nc2cc(NS(=O)(=O)NCc3ncccc3F)ccc2c1C(=O)Nc1ccc(F)c(Cl)c1 |  |  | HepAD38 | PCR | 100–1000 µM |
| Cc1cc(NC(=O)c2c3c(cn2C)S(=O)(=O)N[C@H]2CN(C(=O)C(=O)N[C@H](C)C(F)(F)F)C[C@H]2CO3)ccc1F |  | T128I | HepG2 | PCR | 0.00891 µM |
| CN(Cc1ccccn1)S(=O)(=O)Nc1ccc2c(C(=O)Nc3ccc(F)c(Cl)c3)n(C)nc2c1 |  |  | HepAD38 | PCR | 100–1000 µM |
| COC(=O)C1=C(CN2CC(F)(F)[C@H]3[C@@H]2CCN3CC[C@](C)(O)C(=O)O)NC(c2nccs2)=N[C@H]1c1ccc(F)c(F)c1Cl |  |  | HepG2.2.15 | PCR | 0.028 µM |
| Cc1nn(C)cc1NS(=O)(=O)c1ccc2c(C(=O)Nc3ccc(F)c(Cl)c3)n(C)nc2c1 |  |  | HepAD38 | PCR | 100–1000 µM |
| CCNC(=O)C(=O)N1CCC(NS(=O)(=O)c2cn(C)c(C(=O)Nc3ccc(F)c(C)c3)c2F)CC1 |  |  | HepAD38 cells | PCR | <0.1 µM |
| Cn1nc2cc(NCS(=O)(=O)NCCOCCO)ccc2c1C(=O)Nc1ccc(F)c(Cl)c1 |  |  | HepAD38 | PCR | 100–1000 µM |
| CCOC(=O)C1=C(CN2CC(F)(F)[C@@H]3[C@H]2CON3CC[C@](C)(O)C(=O)O)NC(c2nccs2)=N[C@H]1c1ccc(F)c(F)c1C |  |  | HepG2.2.15 | PCR | 0.039 µM |
| Cn1nc2cc(NS(=O)(=O)N3CCOC3=O)ccc2c1C(=O)Nc1ccc(F)c(Cl)c1 |  |  | HepAD38 | PCR | 100–1000 µM |
| Cc1cc(NC(=O)c2c3c(cn2C)S(=O)(=O)N[C@H]2CN(C(=O)C(=O)NC4(C(F)(F)F)CCC4)C[C@H]2CO3)ccc1F |  |  | HepAD38 | PCR | <0.5 µM |
| Cc1c(C(=O)C(=O)NC(C)(C)c2ccnn2C)c(C)n(C)c1C(=O)Nc1ccc(F)c(C#N)c1 |  |  | HepG2.2.15 | PCR | 0.001–0.0099 µM |
| CC(C)Oc1ccc(-n2c(C(=O)NCc3ccc(C(=O)O)cc3)c3n(c2=O)CCN(C(=O)c2ccc(Br)c(Cl)c2)C3)cc1 |  |  | HepG2.117 | PCR | >5 µM |
| C=C1[C@H](CO)[C@@H](O)C[C@@H]1n1cnc2c(=O)[nH]c(N)nc21 | Genotype D |  | PHH | fluorescence | <0.0015 µM |
| COC(=O)C1=C(CN2CC(F)(F)[C@H]3[C@@H]2CCN3C[C@@H](F)C(C)(C)C(=O)O)NC(c2nc(C)cs2)=N[C@H]1c1cccc(F)c1Cl |  |  | HepG2.2.15 | PCR | 0.001 µM |
| Cc1cc(NC(=O)c2c3c(c(C)n2C)S(=O)(=O)N[C@H]2CN(C(=O)C(=O)N[C@H](C)C(F)(F)F)C[C@H]2CO3)ccc1F |  |  | HepAD38 | PCR | <0.5 µM |
| COC(=O)C1=C(CN2CC(F)(F)[C@@H]3[C@H]2CON3C[C@@H](OC)C(C)(C)C(=O)O)NC(c2nccs2)=N[C@H]1c1ccc(F)c(F)c1C |  |  | HepG2.2.15 | PCR | 0.016 µM |
| Cn1nc2cc(NS(=O)(=O)c3cnn(-c4cc(OCc5ccccc5)ccn4)c3)ccc2c1C(=O)Nc1ccc(F)c(Cl)c1 |  |  | HepAD38 | PCR | 100–1000 µM |
| Cc1cc(NC(=O)c2c(F)c(S(=O)(=O)N[C@@H]3CCCN(S(=O)(=O)C4CC4)C3)cn2C)ccc1F |  |  | HepAD38 cells | PCR | <0.1 µM |
| COc1ccc([C@H](C)NC(=O)c2c3n(c(=O)n2-c2ccc(OC4CC4)cc2)C[C@@H](C)N(C(=O)c2ccc(Br)c(Cl)c2)C3)cc1 |  |  | HepG2.117 | PCR | 0.5–5 µM |
| Cc1cc(NC(=O)c2c3c(cn2C)S(=O)(=O)N[C@H]2CN(C(=O)C(=O)NCC4CC4)C[C@H]2CS3)ccc1F |  |  | HepAD38 | PCR | <0.5 µM |
| C#C[C@H](C)NC(=O)C(=O)c1c(C)c(C(=O)Nc2ccc(F)c(C#N)c2)n(C)c1C |  |  | HepG2.2.15 | PCR | 0.001–0.0099 µM |
| COc1ccc(CNC(=O)c2c3n(c(=O)n2-c2cccc(OC)c2)CCN(C(=O)c2ccc(Br)c(Cl)c2)C3)cc1 |  |  | HepG2.117 | PCR | 0.5–5 µM |
| Cc1cc(NC(=O)c2c3c(cn2C)S(=O)(=O)N[C@H]2CN(C(=O)C(=O)NC4CC4)C[C@H]2CS3)ccc1F |  |  | HepAD38 | PCR | <0.5 µM |
| COc1ccc(-n2c(C(=O)NCc3ccc(OC(C)C)cc3)c3n(c2=O)CCN(C(=O)c2ccc(Br)c(Cl)c2)C3)cc1 |  |  | HepG2.117 | PCR | 0.1–0.5 µM |
| CC(C)NC(=O)C(=O)N1CC[C@@H](NS(=O)(=O)c2cn(C)c(C(=O)Nc3cc(F)c(F)c(F)c3)c2F)[C@@H](C)C1 |  |  | HepAD38 cells | PCR | <0.1 µM |